Anti-infective test results gathered from many reports (values: NIAID ChemDB through PubChem).

Shared fields: tests in culture; agent: Hepatitis B virus; endpoint: EC50

An empty or dashed field is not shown. Conditions beyond the fields shown may differ between rows. ECn: concentration that inhibits the pathogen or its effect by n%. a–b is a range or a potency band.

SMILES,strain or isolate,mutations,cell line,method,value
COCCCOc1cc2c(cc1C#N)-c1c(cc(C(=O)O)c(=O)n1C1CC1)C(C)S2(=O)=O,,,Primary human hepatocytes,antigen / visual reading / absorbance,0.1–0.5 µM
Nc1ccn([C@@H]2CS[C@H](CO)O2)c(=O)n1,,,HepG2,,0.04 µM
COc1cc2c(cc1Cl)-c1c(cc(C(=O)O)c(=O)n1C1CC1)C(C)S2(=O)=O,,,Primary human hepatocytes,antigen / visual reading / absorbance,>0.5 µM
COC(=O)[C@H](C)NP(=O)(OC[C@H]1C/C1=C/n1cnc2c(N)nc(N)nc21)Oc1ccccc1,,,CEM,,>50 µM
Nc1nc2c(ncn2[C@@H]2O[C@H](COP(=O)(O)OP(=O)(O)OP(=O)(O)O)[C@H]2CO)c(=O)[nH]1,,,HB611,,1.5 µM
Nc1ccn([C@H]2CS[C@@H](CO)O2)c(=O)n1,,,CEM,,0.5 µM
CC(C)Oc1ccc(-n2c(C(=O)NCc3ccccc3)c3n(c2=O)CCN([C@@H](c2ccc(Br)c(Cl)c2)C(F)(F)F)C3)cc1,,,HepG2.117,PCR,>5 µM
CC1c2cc(C(=O)O)c(=O)n(C3CC3)c2-c2cc(Cl)c(OCCCC#N)cc2S1(=O)=O,,,Primary human hepatocytes,antigen / visual reading / absorbance,>0.5 µM
Nc1nc2c(ncn2[C@@H]2C[C@H](CO)[C@H]2CO)c(=O)[nH]1,,,HEPAD79,,1.1 µg/mL
CCOC(=O)CSc1nnc(CNc2ccccc2)n1-c1ccccc1,,,HepG2 2.2.15,ELISA,31.6 µM
N=c1nc(N)c2ncn([C@@H]3O[C@H](CO)[C@@H](O)[C@H]3O)c2c(N)n1,,,2.2.15,antigen,<10 µM
Cc1ccc(NCc2nnc(SCC(=O)NN=CC(O)C(O)C(O)C(O)CO)n2-c2ccccc2)cc1,,,HepG2 2.2.15,ELISA,7.7 µM
COC(=O)c1cc2cc(N)cc(OC)c2[nH]1,,,,,0.89 µg/mL
O=C(Nc1ccc(-c2nc3cccc(F)c3o2)cc1)C1COCCO1,,,Primary human hepatocytes (PHH),antigen / luminescence,0.96 µM
Cc1c(Br)c(=O)[nH]c(=O)n1COC(CO)CO,Mutant M204I,,B1,,51 µg/mL
COc1ccc(-n2c(C(=O)NCc3ccc4c(c3)OCO4)c3n(c2=O)CCN(C(=O)c2ccc(Br)c(Cl)c2)C3)cc1,,,HepG2.117,PCR,0.1–0.5 µM
CCCCNc1cc(OC)c2cc(C(=O)OC)[nH]c2c1,,,,,9.54 µg/mL
NC(=O)c1cc(C(=O)NC2CC3(C2)CC(c2nc4cc(Cl)ccc4s2)C3)ccn1,,,Primary human hepatocytes,luminescence,6.81 µM
CNC(=O)c1ccc(-n2c(=O)c3c(n4ncc(CC5CC(F)(F)C5)c24)CN(C(=O)c2ccc(Br)c(Cl)c2)CC3)cc1,,,HepG2.117,luminescence,0.05–0.5 µM
O=C1NC(=O)/C(=C/c2ccc(-c3ccc(C#Cc4ccccc4)cc3)cc2)S1,Genotype D,,HepG2-NTCP,PCR,>10 µM
Nc1nc2c(ncn2CCC(CO)CO)c(=O)[nH]1,,,HEPAD79,,45 µg/mL
O=C(NC1CC2(C1)CC(c1nc3cc(Cl)ccc3o1)C2)c1cc(Br)co1,,,Primary human hepatocytes,luminescence,8.94 µM
O=C(NCc1ccccc1)c1c2n(c(=O)n1-c1ccc(OCCO)cc1)CCN(C(=O)c1ccc(Br)c(Cl)c1)C2,,,HepG2.117,PCR,0.5–5 µM
CC(C)Cc1cnn2c3c(c(=O)n(-c4ccc5c(c4)nnn5C)c12)C[C@@H](C)N(C(=O)c1ccc(Br)c(C(F)(F)F)c1)C3,,,HepG2.117,luminescence,≤0.05 µM
Nc1nc2c(ncn2C[C@]2(CO)C[C@H]2CO)c(=O)[nH]1,,,HEPAD79,,>20 µg/mL
Cn1ncc2cc(-n3c(C(=O)NCc4ccccc4)c4n(c3=O)CCN(C(=O)c3ccc(Br)c(Cl)c3)C4)ccc21,,,HepG2.117,PCR,0.1–0.5 µM
Cc1ccc(NCc2nnc(Nc3ccccc3)s2)cc1,,,HepG2 2.2.15,ELISA,52 µM
C=C1[C@@H](n2cnc3c(N)ncnc32)[C@H](F)[C@H](O)[C@H]1CO,,L180M+M204V+S202G,Huh7,,0.67 µM
COCCCOc1cc2c(cc1Br)-c1c(cc(C(=O)O)c(=O)n1C1CC1)C(C)S2(=O)=O,,,Primary human hepatocytes,antigen / visual reading / absorbance,0.05–0.1 µM
O=C1NC(=O)/C(=C/c2ccc(-c3ccccc3)cc2)S1,Genotype D,,HepG2-NTCP,PCR,21.4 µM
COC(=O)c1cc2c(OC)c(N)ccc2[nH]1,,,,,2.13 µg/mL
CCC1c2cc(C(=O)O)c(=O)n(C3CC3)c2-c2cc(Cl)c(OCCCOC)cc2S1(=O)=O,,,Primary human hepatocytes,antigen / visual reading / absorbance,>0.5 µM
O=C1NC(=O)/C(=C/c2ccc(-c3ccc(-c4cccnc4)cc3)cc2)S1,Genotype D,,HepG2-NTCP,PCR,>10 µM
COCCOc1ccc(-n2c(C(=O)NCc3ccccc3)c3n(c2=O)CCN(C(=O)c2ccc(Br)c(Cl)c2)C3)cc1,,,HepG2.117,PCR,0.1–0.5 µM
Cc1cc(F)cc(C(=O)Nc2ccc(-c3nnc(-c4ccccc4)o3)cc2)c1,,,Primary human hepatocytes (PHH),antigen / luminescence,1.61 µM
O=C(CN(c1cc(C(F)(F)F)ccc1Cl)S(=O)(=O)c1ccccc1)NCc1ccncc1,Genotype D,,HepG2-NTCPsec+,visual reading / absorbance,0.5 µM
COCc1ccc(C(=O)NC2CC3(C2)CC(c2nc4cc(Cl)ccc4o2)C3)o1,,,Primary human hepatocytes,luminescence,7.965 µM
Nc1nc2c(ncn2COC(CO)CO)c(=O)[nH]1,,,HEPAD79,,>50 µg/mL
CNC(=O)c1ccc(-n2c(=O)c3c(n4ncc(CC5CC5)c24)CN(C(=O)c2ccc(Br)c(Cl)c2)[C@H](C)C3)cc1,,,HepG2.117,luminescence,≤0.05 µM
c1ccc(NCc2nnc(Sc3ccccc3)o2)cc1,,,HepG2 2.2.15,ELISA,72.2 µM
O=C(c1ccc(Br)c(Cl)c1)N1CCc2c(n3ncc(Cc4ccccc4)c3n(-c3ccc(-n4ccc(C(F)(F)F)n4)cc3)c2=O)C1,,,HepG2.117,luminescence,0.05–0.5 µM
CC1c2cc(C(=O)O)c(=O)n(C3CC3)c2-c2cc(Cl)c(OC3CCCC3)cc2S1(=O)=O,,,Primary human hepatocytes,antigen / visual reading / absorbance,0.05–0.1 µM
C[C@H]1Cc2c(n3ncc(CC4CCC4)c3n(-c3ccc(-c4nncn4C)cc3)c2=O)CN1C(=O)c1ccc(Cl)c(C(F)(F)F)c1,,,HepG2.117,luminescence,0.5–5 µM
CS(=O)(=O)c1cc(C(=O)NCC2CCN(c3nc4cc(Cl)ccc4o3)CC2)ccn1,,,Primary human hepatocytes (PHH),antigen / luminescence,5.741 µM
COc1ccc(-n2c(C(=O)NCc3ccccc3OC)c3n(c2=O)CCN(C(=O)c2ccc(Cl)c(Cl)c2)C3)cc1,,,HepG2.117,PCR,0.1–0.5 µM
C[C@H]1Cc2c(n3ncc(Cc4ccccc4)c3n(-c3ccc(-n4ccc(C(F)(F)F)n4)cc3)c2=O)CN1C(=O)c1ccc(Br)c(C(F)(F)F)c1,,,HepG2.117,luminescence,0.5–5 µM
COc1cc(C(=O)NC2CC3(C2)CN(c2nc4cc(Cl)ccc4o2)C3)ccn1,,,Primary human hepatocytes (PHH),antigen / luminescence,5.732 µM
O=C1NC(=O)/C(=C/c2ccc(-c3ccc4c5ccccc5c5ccccc5c4c3)cc2)S1,Genotype D,,HepG2-NTCP,PCR,7.8 µM
COC(=O)c1cc(C(F)(F)F)c2c(OC)cc(N)cc2n1,,,,,0.74 µg/mL
CNC(=O)c1ccc(-n2c(=O)c3c(n4ncc(CC5CCC5)c24)CN(C(=O)c2ccc(Br)c(C(F)(F)F)c2)CC3)cc1,,,HepG2.117,luminescence,≤0.05 µM
COC(=O)c1cc(C(=O)OC)c2c(OC)cc(N)cc2n1,,,,,0.2 µg/mL
COc1cc2c(cc1Cl)-c1c(cc(C(=O)O)c(=O)n1C1CC1)CS2(=O)=O,,,Primary human hepatocytes,antigen / visual reading / absorbance,0.1–0.5 µM